# Experimental data: PubChem BioAssay AID1259414 (Drosophila RNAi Screening Center, 2018)
# Aim: 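Fly genes that alter Wolbachia amount inside host cells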 (primary screen)
# Cells: Drosophila JW18 cells infected with Wolbachia
# Reagent: long dsRNA against Drosophila genes, 0.25 µg dsRNA per well of a 384-well plate
# Duration: 5 days
# Treatment: cells persistently infected with Wolbachia before knock-down; no added drug
# Measurement: 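Automated imaging of bacterial rRNA staining divided by host cell count, reported as plate-normalised robust z-score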
# Direction: Wolbachia per cell robust z: higher = more Wolbachia per host cell than the plate typical
# Call rule: 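Hit when robust z is 1.5 or more, or -1.5 or less, in at least two of three replicates; excludes dsRNAs with several or no targets, genes not expressed in JW18 and well A1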
# In all, the deposit lists about 24,000 reagents; this is an unselected part of those that have a named target and a result. In the full data, about 1,210 (5%) got an active call. 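Inactive calls also include excluded dsRNAs with several or no targets, genes unexpressed in JW18, and well A1, regardless of score.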 A plus sign joins genes that one reagent is predicted to hit.
gene,DRSC id,"Wolbachia per cell robust z, rep 1","Wolbachia per cell robust z, rep 2","Wolbachia per cell robust z, rep 3",activity call
CG33191 + Pif1B,DRSC12706,-0.888,-0.655,-0.0862,inactive
CG8060 (GeneID 36824),DRSC07064,-0.428,-0.507,-1.89,inactive
Prp40 (GeneID 33513),DRSC00612,-0.145,-1.2,0.672,inactive
r2d2 (GeneID 34066),DRSC03014,0.724,0.451,-0.155,inactive
r2d2 (GeneID 34066),DRSC29562,1.14,0.866,0.518,inactive
CG3918 (GeneID 31585),DRSC23159,-1.38,-0.519,-0.573,inactive
CG3918 (GeneID 31585),DRSC28834,0.198,1.57,1.03,inactive
Amnionless (GeneID 33199),DRSC00317,-0.645,-0.223,0.0396,inactive
CG8773 (GeneID 41634),DRSC16444,0.469,0.0937,0.443,inactive
CG8773 (GeneID 41634),DRSC23903,-0.313,-0.228,-0.0155,inactive
betaTub60D (GeneID 37888),DRSC04673,-0.328,0.254,-6.85,inactive
betaTub60D (GeneID 37888),DRSC22218,1.1,-0.289,-0.736,inactive
betaTub60D (GeneID 37888),DRSC23872,0.405,1.79,-0.437,inactive
betaTub60D (GeneID 37888),DRSC38952,-1.2,0.698,-1.76,inactive
CG2121 (GeneID 35814),DRSC06819,-0.573,0.352,-0.247,inactive
CG2121 (GeneID 35814),DRSC06820,0.616,-0.329,-0.706,inactive
CG31636 (GeneID 318865),DRSC02276,0.717,0.112,-4.54,inactive
CG31636 (GeneID 318865),DRSC24911,1.67,0.868,1.24,inactive
sty (GeneID 38424),DRSC22994,-0.858,-2.28,-0.867,inactive
sty (GeneID 38424),DRSC25779,0.313,-1.15,-0.878,inactive
Eig71Ei (GeneID 39710),DRSC11156,-5.85,1.13,-1.43,inactive
Eig71Ei (GeneID 39710),DRSC29123,0.682,-0.236,-1.64,inactive
CG5890 (GeneID 43126),DRSC15909,1.05,0.464,-2.15,inactive
osi (GeneID 50459),DRSC02931,-6.7,-3.58,-0.252,inactive
CG4278 (GeneID 34970),DRSC02741,-0.668,-1.21,-0.876,inactive
CG6337 (GeneID 36530),DRSC06977,-4.62,0.941,-0.599,inactive
CG6337 (GeneID 36530),DRSC21870,-1.42,-0.03,-0.342,inactive
CG42711 (GeneID 10178864),DRSC41386,-0.662,-1.09,-0.274,inactive

2 entries from above, reformatted:
{"gene": "CG3918 (GeneID 31585)", "DRSC id": "DRSC23159", "Wolbachia per cell robust z, rep 1": -1.38, "Wolbachia per cell robust z, rep 2": -0.519, "Wolbachia per cell robust z, rep 3": -0.573, "activity call": "inactive"}
{"gene": "CG3918 (GeneID 31585)", "DRSC id": "DRSC28834", "Wolbachia per cell robust z, rep 1": 0.198, "Wolbachia per cell robust z, rep 2": 1.57, "Wolbachia per cell robust z, rep 3": 1.03, "activity call": "inactive"}
